Test system: Escherichia coli
Conditions: C600::933W

## GENTAMICIN
  MIC: 0.5 µg/mL

From ChEMBL document CHEMBL1671710, “Different classes of antibiotics differentially influence shiga toxin production” (2010)
